{
  "source": "PubChem BioAssay AID1159524",
  "about": "(National Center for Advancing Translational Sciences (NCATS), 2015)",
  "note": "Only a part is listed here, and it is no random draw. Records with an inconclusive call do not appear. Activity calls are given as the source filed them. The call rests on the fitted dose curve; tested in HEK293T cells. On the % scale 0 is the no-effect control and ±100 the full control effect.",
  "data": [
    {"experiment": "High Throughput Screening for Foot and Mouth Disease Virus Antivirals; further: read-out not given here; nearly all actives have a fitted effect of over 45% in size", "details": "FMDV antiviral cell-based qHTS; at 57.9 µM (top of the series)", "values": [
      {"molecule": "NC(=O)Nc1ccc([As](=O)(O)O)cc1", "activity change, negative = inhibition": "inactive: -21.3%"}
    ]}
  ]
}
